{"source": "PubChem BioAssay AID624099 – ICCB-Longwood | 2012", "test": "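Host factors E2 relies on to silence an HPV18 LCR reporter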 (primary screen)", "cells": "human C33A cervical carcinoma cells (HPV-negative) stably expressing BPV1 E2 and an HPV18 LCR luciferase reporter", "knock-down reagent": "siRNA pool against human genes, 40 nM", "time to read-out": "72 h", "read-out": "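HPV18 LCR reporter light per well, converted to plate-wise z-scores that exclude control wells, and averaged over triplicate plates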", "scale": "mean z-score and z-score: higher = stronger reporter signal, weaker E2 silencing", "active means": "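Hit if mean z-score reaches 2 and two or more of three replicate z-scores also reach 2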", "note": "Shown is a random part of about 21,000 reagents. 497 of them (2.4%) were called active. 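Higher z means weaker E2 silencing; only reporter increases were scored, and knock-downs that hurt cell survival may mask genuine repressor factors.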 A number with no mark means an inactive call. Reagent sequences are not shown."}
{"Gene": "BMS1 (GeneID 9790)", "mean z-score": -0.44, "z-score, replicate A": -0.46, "z-score, replicate B": -0.56, "z-score, replicate C": -0.29}
{"Gene": "HNRNPA3P5 (GeneID 387933)", "mean z-score": -1.12, "z-score, replicate A": -0.97, "z-score, replicate B": -0.78, "z-score, replicate C": -1.6}
{"Gene": "NHERF2 (GeneID 9351)", "mean z-score": 0.13, "z-score, replicate A": -0.03, "z-score, replicate B": 0.15, "z-score, replicate C": 0.27}
{"Gene": "SNAPIN (GeneID 23557)", "mean z-score": "2.05 (active)", "z-score, replicate A": 2.15, "z-score, replicate B": 1.97, "z-score, replicate C": 2.04}
{"Gene": "SLC23A2 (GeneID 9962)", "mean z-score": 0.84, "z-score, replicate A": 0.97, "z-score, replicate B": 0.75, "z-score, replicate C": 0.8}
{"Gene": "MTUS2 (GeneID 23281)", "mean z-score": -1.34, "z-score, replicate A": -1.35, "z-score, replicate B": -1.12, "z-score, replicate C": -1.56}
{"Gene": "LINC02481 (GeneID 339988)", "mean z-score": -0.18, "z-score, replicate A": -0.05, "z-score, replicate B": -0.52, "z-score, replicate C": 0.04}
{"Gene": "MBTD1 (GeneID 54799)", "mean z-score": 0.75, "z-score, replicate A": 1.04, "z-score, replicate B": 0.46, "z-score, replicate C": 0.74}
{"Gene": "RTKN2 (GeneID 219790)", "mean z-score": -0.11, "z-score, replicate A": 0.28, "z-score, replicate B": -0.31, "z-score, replicate C": -0.31}
{"Gene": "OC90 (GeneID 729330)", "mean z-score": 0.3, "z-score, replicate A": 0.29, "z-score, replicate B": 0.25, "z-score, replicate C": 0.35}
{"Gene": "TNFRSF10A (GeneID 8797)", "mean z-score": 0.21, "z-score, replicate A": 0.4, "z-score, replicate B": 0.33, "z-score, replicate C": -0.09}
{"Gene": "ZNF619 (GeneID 285267)", "mean z-score": -0.36, "z-score, replicate A": -0.72, "z-score, replicate B": -0.13, "z-score, replicate C": -0.25}
{"Gene": "LRRC59 (GeneID 55379)", "mean z-score": -0.41, "z-score, replicate A": -0.67, "z-score, replicate B": -0.25, "z-score, replicate C": -0.31}
{"Gene": "SGF29P1 (GeneID 388242)", "mean z-score": -1.6, "z-score, replicate A": -1.71, "z-score, replicate B": -1.66, "z-score, replicate C": -1.44}

A few values from the entries so far:
TNFRSF10A (GeneID 8797), z-score, replicate C: -0.09
Under “z-score, replicate C”, LINC02481 (GeneID 339988) is entered as 0.04
